In publication PMC7843721:

Tests used:
MtrA = molecular target: T1, MtrA (UniProt P9WGM7); experiment: EMSA; details: recombinant protein, protein details: 6xHis, label: 32P 5'-end, probe letters rebuilt from the primers and the genome
T1 sequence (looked up, limits assumed): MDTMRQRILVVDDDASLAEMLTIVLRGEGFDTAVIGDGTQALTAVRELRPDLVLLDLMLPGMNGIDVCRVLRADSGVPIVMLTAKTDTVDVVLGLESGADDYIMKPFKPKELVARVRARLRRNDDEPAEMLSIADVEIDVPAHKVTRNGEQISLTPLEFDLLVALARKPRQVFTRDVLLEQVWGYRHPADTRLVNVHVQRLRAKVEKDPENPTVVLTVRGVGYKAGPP

MtrA~P = molecular target: T2, MtrA~P (UniProt P9WGM7); experiment: EMSA; details: recombinant protein; protein details: 6xHis; label: 32P 5'-end; probe letters rebuilt from the primers and the genome
T2 sequence (looked up, limits assumed): T1 sequence (looked up, limits assumed)

| Sequence | binding result (MtrA; 2 uM MtrA) | binding result (MtrA~P) | binding result (MtrA; MtrA titration, 4 uM) |
| --- | --- | --- | --- |
| GATCGTCGACCATCGGTGATTGGGTCTGATGAAGTTTGGTAAGTAGAGTCAACGCGCTATATCCCCGACCTCGGCAACACTCAACCACCTACACAGCGAACAAAAAGCAAAATGGGCCCTCCGAAACCTAGAGGCCCCACCCGTTCGATCACAAGACGGTAACGAACCGGCCAATGTTGAGCAACTCCGGCGCGCGGGTGTTATGGGCCGCTCGGCGCGCTCATTGGCGCATCCACCCTAGCCCATAAGCTCGGCGAGCGTTGCTTGTGGTGATGAGCGCCACCTCTTCGGGGCGCCGATTGACCAGTTCAGCCAGCGCCCGCACGGTATAGGGCAGGCAGTACGGTTCGTTCGCCAAGCCCCGGTGGGGATGCGGGGTCAAATACGGTGCATCGGTTTCCACCAAAAGCTGCTCCACCGGCATCAGCGGGACGGCTTCCCGTAGTTCACGGGCGGTACGGAGAATTCGATC (double strand) [rpfB promoter 440 bp] | binds | binds |  |
| TTGCGCCCTTTCACCTCACGATGAGTTCGATCCCGTGGCTAGCGCCCCGCTAGCGTGGGGACTGCCAACGACGAATGCCCATGACGCGTGACCCGCCACGACGGCCGCAACAGCAGTCGAACAACAACCGTAGAGCTTCTCACGTCAACTTGAAAGTTCATCATTGACCTCTGACCCACCGCGACGAGCCAGTTATGCGGGTGGTATCCAGCGAACGATCCCCAGCGCTGTCTTTCCAAGAACAAACGACGAAGAAATCTCGGTAACAGTATTAGAGGGTGTGCAGTTTGGGGACAGTCTGGTCTTGGTGCAGGTCGACGTCGGTCGGAGTTGTGGATGACGGTGGCGATGACTGTGGGGTGTGTGTTGGGTCGGTGGGGATGAGGCGTGGGTTGTGAACGGAACCGCCGGGACTGTATGAGTCTGTGCGCGGTTTGTGCACAGCGACACTCACAGCCAATCTCTGTGACTGGTGTGACCTGGGAGAGAGAAGTTTTTTTAAGAACGTTGTCGGAAGAACACGCCGTGCTAGCGCTTGGAGCGCTGACGGATG (double strand) [oriC 526 bp] |  | binds | binds |

Construct, isoform or probe ends are uncertain for at least one entry. Tags and fusion partners may be left off the protein sequences shown.
